Assay results from patent publication US6180388A, “Enzymes and micro organisms with amidase activity which hydrolyze polyamides” (Rhone-Poulenc Fibres et Polymeres S.A., priority 1995, dated 2001).

Tested on: Comamonas acidovorans N 12 and strain PAM I
Test: Enzymatic hydrolysis of adipic acid/HMD oligomers with cells of Comamonas acidovorans N 12 and strain PAM I, analysis of the supernatant
Type: cell-based, Comamonas acidovorans; E. coli
Settings: after 18 hours hydrolysis

NCCCCCCN [HMD, hexamethylenediamine]
molar yield of monomer formed: 58%

O=C(O)CCCCC(=O)O [ADIPIC ACID, adipic acid]
molar yield of monomer formed: 66%
